IC50 data for 2 compounds are collected here from patent publication US20260021071A1, “SMALL MOLECULE BROAD-SPECTRUM ANTIBIOTICS” (University of Florida Research Foundation, Incorporated, priority 2022, published 2026).

For assay [1], the system named is PAO200 P. aeruginosa bacteria, the MexAB-OprM efflux pump minus strain of PAO1. The assay can be described thus: Whole cell live/dead turbidity growth assay, PAO200. The assay is classed as cell-based, Pseudomonas aeruginosa. Conditions: read-out: PAO200 IC50, titration in triplicate.
The next assay concerns PAO1. The assay can be described thus: Whole cell turbidity end point assay, PAO1. The assay is classed as cell-based, Pseudomonas aeruginosa. The conditions noted are these: read-out: PAO01 IC50; P. aeruginosa PAO1, turbidity, titration in triplicate.
Assay [2] deals with E. coli W3110 a TolC::Tn10 inclusive strain. Nature of the assay: Whole cell turbidity end point assay, E. coli W3110. Conditions: read-out: W3110 IC50, titration in triplicate. It counts as cell-based.
The subject of assay [3] is NRS135 gram-positive S. aureus strain expressing NorA::tetM. The assay can be described thus: Whole cell turbidity end point assay, NRS135. The assay is classed as cell-based. The conditions noted are these: read-out: NRS135 IC50, titration in triplicate.

`O=[N+]([O-])c1nonc1Cn1nnc2ccccc21`: the IC50 is 17.6 µM in assay [1], 21.8 µM with PAO1, 36 µM in assay [2] and 38.2 µM in assay [3].
In the same order, the values of `CNc1cc(Cl)c2nonc2c1[N+](=O)[O-]` [Compound 3] are 0.379 µM, 10.2 µM, 12.3 µM and 13 µM.
